# Assay results reported in patent publication US20250064988A1, “MRI-AGENT LOADED PLATELET COMPOSITIONS AND METHODS OF PREPARING AND USING THE SAME” (Cellphire, Inc., priority 2022, published 2025).
# Test system: platelets
# Test: Example 10 flow cytometry MFI in the FITC channel
# Assay type: cell-based, human
# Conditions: 50 μM loading
substance,measurement,setting,value
"TAT-FITC-DOTA-GD: DOTA chelated gadolinium TAT-peptide with FITC label; TAT sequence [K]LRKKRRQRRR (SEQ ID NO: 2) (KLRKKRRQRRR; FITC label, DOTA-gadolinium chelate; TAT Functional Fragment)","FITC fluorescence, cryopreserved platelets versus FDPDs",,decreased from cryopreservation to FDPDs
same,mean fluorescence intensity (MFI) in the FITC channel,unloaded product subtracted as background,low
